Reference: patent US20250197484A1 (ECO ANIMAL HEALTH, published 2025)

B1: Net_14 (VHH)
VHH: QVQLVESGGGLVQAGGSVRLSCVASGLTFSGYSLGWFRQAPGKEREGVSYISSSGMITDYADSVKGRVTISRDDAKSTMYLQMNSLKPEDTAVYYCAARFPRPRSWLSTDSYNYWGQGAQVTVSS
B2: Net_83 (VHH)
VHH: QVQLVESGGGLVQAGESLRLSCAASGSIRSISFMNWYRQQPGKQRELVAGINQIGNTNYAGSVKGRFTISRDNAKNTVYLQMNSLKPEDTAVYYCNVIVRGTVSPFQFWGQGTQVTVSS

Biological target: Clostridium perfringens NetB toxin (necrotic enteritis B-like toxin) (Clostridium perfringens)
Test: cell-based or functional assay

| Binder | IC50, inhibition of NetB-induced chicken RBC lysis, pH 6.0, NetB 20 nM | IC50, inhibition of NetB-induced chicken RBC lysis, pH 7.4, NetB 20 nM | Molar ratio to NetB @ 20 nM, pH 6.0 | Molar ratio to NetB @ 20 nM, pH 7.4 |
| --- | --- | --- | --- | --- |
| B1 | 32.2 nM | 74 nM | 1.61 VHH:NetB molar ratio | 3.7 VHH:NetB molar ratio |
| B2 | 103 nM | 138 nM | 5.13 VHH:NetB molar ratio | 6.88 VHH:NetB molar ratio |
